Consider one substance from patent US20260126425A1.

In experiment [1] the target is SARS-CoV-2 Spike protein (Spike trimer) (SARS-CoV-2) (UniProt P0DTC2).
Experiment [2] has the same target. The source holds these as a separate data set.
The target is the same in experiment [3]. This is another data set of the same source.
Experiment [4] shares this target. This is another data set of the same source.
The target is the same in experiment [5]. The source holds these as a separate data set.
Experiment [6] shares this target. This is another data set of the same source.
Experiment [7] has the same target. The source holds these as a separate data set.
For experiment [8] the target is unchanged. This is another data set of the same source.
Experiment [9] shares this target. The source holds these as a separate data set.
The target is the same in experiment [10]. This is another data set of the same source.

For Ty1-modified ClyA nanopore (ClyA-f-Ty1), the Log10(tin (ms)), centre of the Gauss fit, at 2.3 nM Spike in experiment [1] was 1.11 Log10(ms). In addition, in experiment [2], the Log10(tout (ms)), first peak of the Gauss fit, at 2.3 nM Spike is 0.582 Log10(ms) and the Log10(tout (ms)), second peak of the Gauss fit, at 2.3 nM Spike was 4.17 Log10(ms). For the same substance, in experiment [3], the Log10(tout (ms)), centre of the Gauss fit, at 115 pM Spike was 0.86 Log10(ms). Also, the Log10(tout (ms)), centre of the Gauss fit, at 230 pM Spike in [4] is 0.884 Log10(ms). In experiment [5], the Log10(tout (ms)), centre of the Gauss fit, at 345 pM Spike was 1.07 Log10(ms). Also, in experiment [6], the Log10(tout (ms)), centre of the Gauss fit, at 460 pM Spike is 1.59 Log10(ms). Moreover, the Log10(tin (ms)), centre of the Gauss fit, at 115 pM Spike in experiment [7] was 1.23 Log10(ms). The Log10(tin (ms)), centre of the Gauss fit, at 230 pM Spike in [8] was 1.47 Log10(ms). In addition, in experiment [9], the Log10(tin (ms)), centre of the Gauss fit, at 345 pM Spike is 1.29 Log10(ms). Further, in experiment [10], the Log10(tin (ms)), centre of the Gauss fit, at 460 pM Spike was 1.55 Log10(ms).
